In PubChem BioAssay AID1986 (Sanford-Burnham Center for Chemical Genomics, 2009):
Only a part is listed here, and it is no random draw. Active and inactive are the calls of the source. Rule as the data show it: active = inhibition mostly above about 52% (no sharp cut-off); inactive = mostly below about 76%.

Test: inhibitors of HIV fusion peptide binding, primary screen, biochemical, uHTS, fluorescence dequenching (AID 1986)
Conditions: HIV Env-mediated cell-cell fusion, fluorescence reporter; at 20 µM; active compounds read high
With `CCC1=CC2Cc3nc4ccc(Cl)cc4c(N)c3C(C1)C2` (stereo not drawn) the inhibition was inactive: 0.5%. With `O=P1(Nc2ccccn2)COc2ccccc2OC1` the inhibition was inactive: 0.6%. For `CC(C)(C)C(=O)NC(Sc1ncccn1)C(Cl)(Cl)Cl` (stereo not drawn), the inhibition was inactive: 0.8%. In the case of `Clc1n[nH]nc1-c1nn[nH][15n]1`, the inhibition is reported as inactive: -2.2%. With `O=[As](O)(c1ccccc1Br)c1ccccc1Br` the inhibition was inactive: -0.1%. For `CN(C(=O)Cc1ccc(Cl)c(Cl)c1)[C@@H]1CCCC[C@H]1N1CCCC1`, the inhibition was inactive: -0.3%. For `CC(C)/C=N\N=C(\N)N[N+](=O)[O-]`, the inhibition was inactive: 0.4%. With `Cc1ccc(C(=O)OC2CN3CCC2CC3)cc1` (stereo not drawn) the inhibition was inactive: -1%. In the case of `CC1CCC(C(C)C)C(OP(=O)(Nc2ccccn2)c2ccccc2)C1` (stereo not drawn), the inhibition is reported as inactive: -0.6%. For `Cc1nn(-c2ccccc2)c2c1P(=O)(N1CCOCC1)N(C)C(c1ccccc1)=N2` (stereo not drawn), the inhibition was inactive: 2.9%. With `O=C(/C=C/c1ccccc1)OC1CN2CCC1CC2` (stereo not drawn) the inhibition was inactive: -0.5%. In the case of `CN(C)C1(CNC(=O)c2ccc(S(C)(=O)=O)cc2)CCCCC1`, the inhibition is reported as inactive: -0.6%. In the case of `O=P1(Nc2ncccn2)COc2ccccc2OC1`, the inhibition is reported as inactive: 1.8%. In the case of `O=[As](O)(c1cccs1)c1cccs1`, the inhibition is reported as inactive: -0.9%. For `Cc1ccc(OCC(=O)OC2CN3CCC2CC3)cc1` (stereo not drawn), the inhibition was inactive: 2.4%. For `O=P1(Nc2ccc(Br)cn2)COc2ccccc2OC1`, the inhibition was inactive: 1.2%. For `Nc1cccc([As](=O)(O)c2ccccc2)c1`, the inhibition was inactive: -0.6%. With `CS(=O)(=O)c1cc([N+](=O)[O-])c2no[n+]([O-])c2c1` the inhibition was inactive: 6%. For `O=P(Nc1nccs1)(Oc1ccccc1)Oc1ccccc1`, the inhibition was inactive: -0.1%. For `O=P(Nc1nccs1)(c1ccccc1)c1nc2ccccc2s1` (stereo not drawn), the inhibition was inactive: -1.1%. In the case of `CCOP1(=S)c2c(C)nn(CCC#N)c2N=C(c2ccccc2F)N1C` (stereo not drawn), the inhibition is reported as inactive: 2.5%. For `O=C(O)COc1ccc([As](=O)(O)O)cc1[N+](=O)[O-]`, the inhibition was inactive: 0.9%. For `Nc1ccccc1[As](=O)(O)c1ccccc1`, the inhibition was inactive: -1.2%. In the case of `NC(=O)Nc1ccc([As](=O)(O)O)cc1`, the inhibition is reported as inactive: 0.7%. In the case of `O=[N+]([O-])c1ccc2c(c1)nnn2O`, the inhibition is reported as inactive: -0.2%. For `CCOP1(=S)c2c(C)nn(CCC#N)c2N=C(c2ccc(F)cc2)N1C` (stereo not drawn), the inhibition was inactive: 0.8%. For `CN(C(=O)Cc1ccccc1)[C@@H]1CC[C@]2(CCCO2)C[C@H]1N1CCCC1`, the inhibition was inactive: 2.5%. With `CS(=O)(=O)c1ccc(Cl)c(NC(=O)COC(=O)C(O)(c2ccccc2)c2ccccc2)c1` the inhibition was inactive: 0.6%. In the case of `O=[As](O)(O)c1cccnc1`, the inhibition is reported as inactive: -1.4%. With `COc1cc(C(=O)NCC2(N3CCOCC3)CCCCC2)cc(Cl)c1OC(C)C` the inhibition was inactive: -1.1%. For `O=C(OC1CN2CCC1CC2)c1ccc(Cl)cc1` (stereo not drawn), the inhibition was inactive: 0.7%. With `Cc1cccc(OCC(=O)OC2CN3CCC2CC3)c1` (stereo not drawn) the inhibition was inactive: 1.6%. For `O=[As](O)(c1cccc(O)c1)c1cccc(O)c1`, the inhibition was inactive: -1.7%. In the case of `CCCOP(=S)(Nc1nc(N)cc(=O)[nH]1)OCCC`, the inhibition is reported as inactive: 1.9%. In the case of `Nc1cccc2c([As](=O)(O)O)cccc12`, the inhibition is reported as inactive: 148%. For `Cc1ccc(NCCc2c([N+](=O)[O-])cc([N+](=O)[O-])cc2[N+](=O)[O-])cc1`, the inhibition was inactive: 35.2%. In the case of `CCOP(=O)(Nc1cccc2ccccc12)OCC`, the inhibition is reported as inactive: -1.6%. In the case of `COc1cc(C2NCCC3(OCCO3)C2(C)C)cc(OC)c1OC` (stereo not drawn), the inhibition is reported as inactive: 3.5%.
